PubChem BioAssay AID1259414 | Drosophila RNAi Screening Center | 2018

Screen: 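Host factors increasing or decreasing Wolbachia levels in cultured fly cells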 (primary screen)
Cells: Drosophila JW18 cells infected with Wolbachia
Reagents: long dsRNA against Drosophila genes, 0.25 µg dsRNA per well of a 384-well plate
Timing: 5 days
Treatment: cells persistently infected with Wolbachia before knock-down; no added drug
Measurement: 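Automated imaging of bacterial rRNA staining divided by host cell count, reported as plate-normalised robust z-score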
Scale: Wolbachia per cell robust z: higher = more Wolbachia per host cell than the plate typical
Call rule: 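Hit when robust z is 1.5 or more, or -1.5 or less, in at least two of three replicates; excludes dsRNAs with several or no targets, genes not expressed in JW18 and well A1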
In all, the deposit lists about 24,000 reagents; below is an unselected part of those that have a named target and a result. Of all reagents, about 1,210 (5%) got an active call. 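Inactive calls also include excluded dsRNAs with several or no targets, genes unexpressed in JW18, and well A1, regardless of score.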 A number with no mark means an inactive call. A plus sign joins genes that one reagent is predicted to hit.

Target gene,amplicon,"Wolbachia per cell robust z, rep 1","Wolbachia per cell robust z, rep 2","Wolbachia per cell robust z, rep 3"
CG17726,DRSC15255,0.744,0.101,-1.13
CG7627,DRSC03065,-1.93,-0.662,0.402
CG7627,DRSC24481,0.151,-0.252,-0.353
CG7627,DRSC39013,-0.34,0.878,-0.0654
HemK2 + Snapin,DRSC00736,-2.25,1.41,-0.193
Galphai (G protein alpha subunit i),DRSC11168,0.0444,-4.83,-1.35
Galphai (G protein alpha subunit i),DRSC28521,-0.222,0.898,0.133
Tis11 (Tis11 zinc finger protein),DRSC23110,1.03,-0.927,0.605
CG14297,DRSC14776,-0.521,-0.0531,-0.171
GluRIB (Glutamate receptor IB),DRSC10258,0.184,-0.536,-0.392
GluRIB (Glutamate receptor IB),DRSC11177,0.541,0.285,-0.888
GluRIB (Glutamate receptor IB),DRSC25464,-0.625,-2.29,-0.491
CR41454 + CG33217,DRSC38608,-3.14 (active),-4.32,-1.22
Mcm2 (Minichromosome maintenance 2),DRSC16734,0.558,0.994,-0.368
Mcm2 (Minichromosome maintenance 2),DRSC26612,-0.155,-0.112,0.614
CG5880,DRSC15906,-1.49,0.0527,0.359
CR31032 (pseudo),DRSC22457,0.74,1.06,0.396
CR31032 (pseudo),DRSC25512,1.33,0.0401,0.994
CG4716,DRSC06884,-0.405,0.499,-1.37
CG4716,DRSC26611,0.733,0.102,-6.34
Gle1 (Gle1 RNA export mediator),DRSC06485,-1.35,0.0462,1.16
Gle1 (Gle1 RNA export mediator),DRSC29960,-3.58 (active),-0.221,-5.13
Pldn (Pallidin),DRSC10137,-0.337,0.16,-1.75
Pldn (Pallidin),DRSC28270,-0.566,0.28,0.485
Inx2 (Innexin 2),DRSC18783,0.103,0.322,-0.175
Inx2 (Innexin 2),DRSC24455,-0.136,-10.1,-1.13
CG31706,DRSC22704,0.324,1.1,-0.166
CG15035,DRSC17967,-0.568,-4.18,-2.05
CG15035,DRSC41385,-3.1,-1.78,-1.18
Spn47C (Serpin 47C),DRSC07030,-0.671,-1.8,0.00675
Spn47C (Serpin 47C),DRSC30068,0.77,0.145,0.449
CG9447,DRSC05008,0.433,-0.603,0.37
CG13315,DRSC09986,-0.614,0.0216,-1.63
chif (chiffon),DRSC03508,1.67 (active),2.05,0.442
serp (serpentine),DRSC11035,-0.873,-0.818,-0.508
serp (serpentine),DRSC11036,1.03,1.59,0.364
CG3257,DRSC04351,-0.62,0.94,0.314
CG3257,DRSC27446,0.894,1.06,0.363
CG15387,DRSC00401,0.429,0.214,0.111
CG34202,DRSC38630,-0.396,0.481,-0.115
Ip6k (Inositol hexakisphosphate kinase),DRSC04054,0.791,0.467,-0.589
Ip6k (Inositol hexakisphosphate kinase),DRSC24285,1.03,0.461,-3.11
Nepl5 (Neprilysin-like 5),DRSC03241,-6.36,0.579,-0.496
Nepl5 (Neprilysin-like 5),DRSC29153,-0.377,0.546,-0.738
Kr-h2 (Kruppel homolog 2),DRSC03356,-0.255,-0.512,-0.44
ng2 (new glue 2),DRSC18803,-4.89,-0.304,-1.52
ec (echinus),DRSC18658,-5.21,-1.66,-0.732
ec (echinus),DRSC23902,-0.0168,1.02,0.907
twz (tiwaz),DRSC04069,1.01,0.383,0.765
twz (tiwaz),DRSC25832,0.738,-1.21,-0.337
Fbp1 (Fat body protein 1),DRSC11166,1.3,-0.265,-1.54
Fbp1 (Fat body protein 1),DRSC26593,-0.499,-0.457,0.941
CG14330,DRSC14809,1.28,-1.95,0.94
Drep2 (DNA fragmentation factor-related protein 2),DRSC07528,0.172,1.08,-1.19
Drep2 (DNA fragmentation factor-related protein 2),DRSC25612,-4.42,-4.28,-8.25
slam (slow as molasses),DRSC03240,-0.861,0.918,-0.358
CG10907,DRSC09804,-0.583,0.976,-0.346
Cda5 (Chitin deacetylase-like 5),DRSC00529,1.13,0.237,-1
Cda5 (Chitin deacetylase-like 5),DRSC00532,-0.11,0.122,0.69
Cda5 (Chitin deacetylase-like 5),DRSC21330,0.557,-1.36,-0.276
nkt (noktochor),DRSC10144,0.534,0.865,-0.0783
CG10418,DRSC09720,0.715,-0.543,-1.8
Crtc (CREB-regulated transcription coactivator),DRSC23130,1.17,0.926,2.95
Crtc (CREB-regulated transcription coactivator),DRSC26174,-0.0929,-0.528,0.608
CG9173,DRSC08635,-0.827,-0.927,-0.455
CG31321,DRSC13028,0.504,-1.69,-0.258
CG31321,DRSC27335,-4.12,0.278,-0.182
Sod2 (Superoxide dismutase 2 (Mn)),DRSC07554,-1.16,0.804,0.0281
Sod2 (Superoxide dismutase 2 (Mn)),DRSC27050,-2.06,0.181,1.9
Teh4 (tipE homolog 4),DRSC08457,0.548,0.168,0.0572
CG17111,DRSC15174,0.385,-1.27,-0.421
CG17111,DRSC26175,0.412,-1.44,-1.05
Ssu72 (Ssu72 CTD phosphatase),DRSC19572,-0.488,0.429,-0.363
Ssu72 (Ssu72 CTD phosphatase),DRSC27868,-0.41,0.0306,-1.06
Ssu72 (Ssu72 CTD phosphatase),DRSC41579,0.788,-0.585,0.834
Or67a (Odorant receptor 67a),DRSC11240,0.146,-0.136,-0.247
pre-mod(mdg4)-U + mod(mdg4),DRSC13476,-0.372,0.586,-7.62
Uck (Uridine-cytidine kinase),DRSC16028,0.0957,0.941,-0.607
Uck (Uridine-cytidine kinase),DRSC41621,-0.28,-1.95,-1.08
Ir56a (Ionotropic receptor 56a),DRSC05776,0.0408,0.517,-0.707
Ir56a (Ionotropic receptor 56a),DRSC28590,0.0863,-1.36,-0.293
CG31548,DRSC22640,-0.51,0.26,1.23
CG31548,DRSC25763,1.23,-0.15,0.207
CG9676,DRSC20204,-0.946,0.342,-2.24
dnc (dunce),DRSC17759,-3.56,-0.747,-1.06
dnc (dunce),DRSC17911,-0.446,-0.169,-0.633
dnc (dunce),DRSC18764,0.266,0.663,-2.51
dnc (dunce),DRSC40675,-1.28,-1.02,-1.11

An excerpt from above, reduced to “Wolbachia per cell robust z, rep 3”:
Gle1 (Gle1 RNA export mediator) [DRSC29960]	-5.13 (active)
Pldn (Pallidin) [DRSC10137]	-1.75
Pldn (Pallidin) [DRSC28270]	0.485
Inx2 (Innexin 2) [DRSC18783]	-0.175
Inx2 (Innexin 2) [DRSC24455]	-1.13
CG31706 [DRSC22704]	-0.166
CG15035 [DRSC17967]	-2.05
CG15035 [DRSC41385]	-1.18
Spn47C (Serpin 47C) [DRSC07030]	0.00675
Spn47C (Serpin 47C) [DRSC30068]	0.449
CG9447 [DRSC05008]	0.37
CG13315 [DRSC09986]	-1.63
chif (chiffon) [DRSC03508]	0.442 (active)
